Pooled drug test results. Numbers come from NIAID ChemDB, via PubChem.

Shared fields: growth or infection tests; agent: HIV-1; read-out: EC50

ECn: concentration that inhibits the pathogen or its effect by n%. Two numbers with a dash give a range or band. Lines come from different laboratories, so protocols vary. An empty or dashed field is not shown.

SMILES | mutations | method | strain or isolate | setting | cells | result
Cn1cc(NC(=O)Nc2cc(C(=O)Nc3cc(C(=O)Nc4ccc(S(=O)(=O)O)c5cc(S(=O)(=O)O)ccc45)n(C)c3)n(C)c2)cc1C(=O)Nc1cc(C(=O)Nc2ccc(S(=O)(=O)O)c3cc(S(=O)(=O)O)ccc23)n(C)c1 | - | cytopathic effect / XTT | RF | - | CEM + CEM-SS | 12.3 µM
CC(C)CN(C[C@@H](O)[C@H](Cc1ccccc1)NC(=O)O[C@H]1CCOC1)S(=O)(=O)c1ccc(N)cc1 | R41T K70E V77I/V | reporter gene | T14434 | - | MT-4 | 47 nM
CC(C)C1=C2C3CCC4[C@@]5(C)CC[C@H](OC(=O)CC(C)(C)C(=O)O)C(C)(C)C5CC[C@@]4(C)[C@]3(C)CC[C@@]2(NC(=O)N2CCC(NC(=O)OC(C)(C)C)CC2)CC1=O | - | RT activity | IIIB | 30% human serum | MT-2 | <0.199 µM
Cn1nc(NC(=O)c2cc(NC(=O)Nc3cc(C(=O)Nc4cc(C(=O)Nc5ccc6cc(S(=O)(=O)O)cc(S(=O)(=O)O)c6c5)n(C)n4)n(C)n3)nn2C)cc1C(=O)Nc1ccc2cc(S(=O)(=O)O)cc(S(=O)(=O)O)c2c1 | - | cytopathic effect / XTT | RF | - | CEM + CEM-SS | 7.5 µM
CCN1CCn2c(=S)[nH]c3cc(Cl)cc(c32)S1(=O)=O | - | cytopathic effect / MTT | - | - | MT-4 | 127 µM
O=C(O)C(=O)/C=C(\O)c1cc(Cc2ccccc2)cn(Cc2ccccc2)c1=O | - | - | - | - | MAGI | 2.1 µM
Cc1nc2c(c(C)c(C)n2CC2CC2(F)F)c(-c2ccc(Cl)cc2)c1[C@H](OC(C)(C)C)C(=O)O | - | MTT | IIIB | - | MT-4 | 0.0265 µM
Cc1cc(C)nc(NS(=O)(=O)c2ccc(N=C3C(=O)N(CN4CCN(c5cc6c(cc5F)c(=O)c(C(=O)O)cn6C)CC4C)c4ccccc43)cc2)n1 | - | cytopathic effect / MTT | IIIB | - | MT-4 | 22.6 µM
CCc1cc(C#N)cc(C(=O)c2cc(Cl)ccc2OCC(=O)Nc2ccc(S(N)(=O)=O)cc2C)c1 | RT-K103N | β-galactosidase | HXB2 | - | HeLa + HELA CD4+ | <0.01 µM
CC(C)C1=C2[C@H]3CC[C@@H]4[C@@]5(C)CC[C@H](OC(=O)CC(C)(C)C(=O)O)C(C)(C)[C@@H]5CC[C@@]4(C)[C@]3(C)CC[C@@]2(NC(=O)c2ccccc2)CC1=O | - | RT activity | IIIB | 30% human serum | MT-2 | <0.199 µM
Nc1nc2c(ncn2[C@H]2C=C[C@@H](CO)C2)c(=O)[nH]1 | - | cytopathic effect / XTT | IIIB | - | CEM | 0.66 µg/mL
O=C(O)C(=O)/C=C(\O)c1cc(Cc2ccc(F)cc2F)cn(Cc2ccc(F)cc2F)c1=O | - | - | - | - | MAGI | 0.3 µM
O=C1CNS(=O)(=O)c2cc(Cl)ccc2N1 | - | cytopathic effect / MTT | - | - | MT-4 | >200 µM
COc1cccc2[nH]cc(C(=O)C(=O)N3CCN(C(=O)c4ccccc4)C[C@H]3C)c12 | - | single cycle | JR-FL | - | HeLa-CD4/CCR5 | 0.0006 µM
CC=CCN1C(C)C(=S)Nc2ccc(Cl)cc2S1(=O)=O | - | cytopathic effect / MTT | - | - | MT-4 | 1.4 µM
OC[C@@H]1C=C[C@H](n2cnc3c(=S)nc[nH]c32)C1 | - | cytopathic effect / XTT | IIIB | - | MT-2 | >10 µg/mL
O=C(O)C(=O)/C=C(\O)c1cc(Cc2ccc(F)cc2F)cn(Cc2ccccc2F)c1=O | - | - | - | - | MAGI | 0.5 µM
CC(C)C1=C2C3CCC4[C@@]5(C)CC[C@H](OC(=O)CC(C)(C)C(=O)O)C(C)(C)C5CC[C@@]4(C)[C@]3(C)CC[C@@]2(NC(=O)NC(C)(C)C)CC1=O | - | RT activity | IIIB | 30% human serum | MT-2 | <0.199 µM
Cc1nc2c(c(C)c(C)n2Cc2cccs2)c(-c2ccc(Cl)cc2)c1[C@H](OC(C)(C)C)C(=O)O | - | MTT | IIIB | - | MT-4 | 0.02615 µM
Cc1nc2ccccc2c(-c2cc(F)c3c(c2C)CCCO3)c1[C@H](OC(C)(C)C)C(=O)O | Q148H | luminescence | NL4-3 | - | MT-4 | 0.015 µM
Cc1nc2c(c(C)c(C)n2C)c(-c2ccc(Cl)cc2)c1[C@H](OC(C)(C)C)C(=O)O | - | MTT | IIIB | - | MT-4 | 0.00627 µM
CC1(C)CC=C(c2cn(-c3nccc(C(=O)NC4CCC(N5CC6CCC(C5)O6)CC4)n3)c3ccc(F)c([C@H](OC(C)(C)C)C(=O)O)c23)CC1 | - | luminescence | NL4-3 | - | MT-4 | 0.0058 µM
Cc1nc2c(c(C)c(C)n2Cc2cccnc2)c(-c2ccc(Cl)cc2)c1[C@H](OC(C)(C)C)C(=O)O | - | MTT | IIIB | - | MT-4 | 0.015 µM
Cc1cc(OCCCS(N)(=O)=O)ccc1NC(=O)COc1ccc(Cl)cc1C(=O)c1cc(F)cc(C(F)(F)F)c1 | RT-V106I Y181C | β-galactosidase | HXB2 | - | HeLa + HELA CD4+ | 0.011–0.1 µM
COc1cc(-c2ccc(N=Nc3ccc4c(S(=O)(=O)O)cc(S(=O)(=O)O)c(N)c4c3O)c(OC)c2)ccc1N=Nc1ccc2c(S(=O)(=O)O)cc(S(=O)(=O)O)c(N)c2c1O | - | cytopathic effect / XTT | N119 | - | CEM + CEM-SS | 0.5 µM
CCN1C[C@H](C)N2C(=C(O)C3C(=O)N4Cc5ccc(F)cc5C(=O)NCCCCCCNC(=O)C(=N4)C32)C1=O | - | - | LAII(IIIB) | - | MT-4 | 2.35 µM
CC(C)C1=C2[C@H]3CC[C@@H]4[C@@]5(C)CC[C@H](OC(=O)[C@H]6CC[C@@](C)(C(=O)O)C6(C)C)C(C)(C)[C@@H]5CC[C@@]4(C)[C@]3(C)CC[C@@]2(NC(=O)OC(C)(C)C)CC1=O | - | RT activity | IIIB | 30% human serum | MT-2 | <0.199 µM
CC1C(=O)Nc2ccc(Cl)cc2S(=O)(=O)N1CC1CC1 | - | cytopathic effect / MTT | - | - | MT-4 | 2.2 µM
Cc1cc(S(N)(=O)=O)ccc1NC(=O)COc1ccc(Cl)cc1C(=O)c1cc(F)cc(C#N)c1 | RT-V108I | β-galactosidase | HXB2 | - | HeLa + HELA CD4+ | <0.01 µM
CCn1c(C)c(C)c2c(-c3ccc(C)cc3)c(C(OC(C)(C)C)C(=O)O)c(C)nc21 | - | MTT | IIIB | - | MT-4 | 0.0269 µM
Cc1ccccc1CN1C(C)C(=O)Nc2ccc(Cl)cc2S1(=O)=O | - | cytopathic effect / MTT | - | - | MT-4 | 1 µM
CCN1C[C@H](C)N2C(=C(O)C3C(=O)N4Cc5ccc(F)cc5C(=O)NCCCCCS(=O)(=O)N(C)C(=N4)C32)C1=O | - | - | LAII(IIIB) | - | MT-4 | 0.6 µM
CCCc1cc(=O)oc2c3c(c4c(c12)OC(C)(C)CC4)O[C@@H](C)[C@H](C)[C@@H]3O | RT-D67N K70R T215Y K219Q | XTT | NL4-3(RT-4XAZT) | - | CEM + CEM-SS | 0.3 µM
Cc1cc(S(N)(=O)=O)ccc1NC(=O)COc1ccc(Cl)cc1C(=O)c1cccc(C#N)n1 | RT-V106I | β-galactosidase | HXB2 | - | HeLa + HELA CD4+ | <0.01 µM
CCN1C[C@H](C)N2C(=C(O)C3C(=O)N4Cc5ccc(Cl)cc5C(=O)N(C)CCCCCCN=C(N4)C32)C1=O | - | - | LAII(IIIB) | - | MT-4 | 1190 µM
Cn1cc(NC(=O)Nc2cc(C(=O)Nc3cc(C(=O)Nc4cc(S(=O)(=O)O)c5cc(S(=O)(=O)O)cc(S(=O)(=O)O)c5c4)n(C)c3)n(C)c2)cc1C(=O)Nc1cc(C(=O)Nc2cc(S(=O)(=O)O)c3cc(S(=O)(=O)O)cc(S(=O)(=O)O)c3c2)n(C)c1 | - | cytopathic effect / XTT | BaL | - | PBMC | 0.4 µM
Cc1cc(C#N)cc(C(=O)c2cc(Cl)ccc2OCC(=O)Nc2ccc(OCCCN3CC=CC3)cc2C)c1 | RT-K103N | β-galactosidase | HXB2 | - | HeLa + HELA CD4+ | <0.01 µM
CC(C)C1=C2[C@H]3CC[C@@H]4[C@@]5(C)CC[C@H](OC(=O)CC(C)(C)C(=O)O)C(C)(C)[C@@H]5CC[C@@]4(C)[C@]3(C)CC[C@@]2(NC(=O)Nc2ncccn2)CC1=O | - | RT activity | IIIB | 30% human serum | MT-2 | <0.199 µM
CS(=O)(=O)Nc1ccc(NC(=O)COc2ccc(Cl)cc2C(=O)c2ccccc2)cc1 | RT-K103N Y181C | β-galactosidase | HXB2 (RT-K103N Y181C) Recombinant | - | HeLa + HELA CD4+ | 0.101–1 µM
CC(C)N1C[C@H](C)N2C(=C(O)C3C(=O)N4Cc5ccc(F)cc5OCCCCS(=O)(=O)N(C5CC5)C(=N4)C32)C1=O | - | - | LAII(IIIB) | - | MT-4 | 1 µM
Cc1cc2[nH]cnc2cc1NC(=O)COc1ccc(Cl)cc1C(=O)c1cc(F)cc(C(F)(F)F)c1 | RT-G190E | β-galactosidase | HXB2 | - | HeLa + HELA CD4+ | <0.01 µM
CC(C)C1=C2C3CCC4[C@@]5(C)CC[C@H](OC(=O)CC(C)(C)C(=O)O)C(C)(C)C5CC[C@@]4(C)[C@]3(C)CC[C@@]2(NC(=O)OC2CCN(C)CC2)CC1=O | - | RT activity | IIIB | 30% human serum | MT-2 | <0.199 µM
CCN1C[C@H](C)N2C(=C(O)C3C(=O)N4Cc5ccc(Cl)cc5OCCCCCNC(=O)C(=N4)C32)C1=O | - | - | LAII(IIIB) | - | MT-4 | 17.36 µM
O=C(O)C(=O)/C=C(\O)c1cc(Cc2cccc(Cl)c2)cn(Cc2cccc(Cl)c2F)c1=O | - | - | - | - | MAGI | 1.4 µM
Cc1cc(S(N)(=O)=O)ccc1NC(=O)COc1ccc(Cl)cc1C(=O)c1cc(F)cc(C(F)(F)F)c1 | RT-K103N G190A | β-galactosidase | HXB2 (RT-K103N G190A) Recombinant | - | HeLa + HELA CD4+ | 0.011–0.1 µM
O=C(O)C(=O)/C=C(\O)c1cc(Cc2ccccc2)cn(Cc2cccc(F)c2)c1=O | - | - | - | - | MAGI | 2 µM
CCn1cc(C(=O)O)c(=O)c2cc(F)c(N3CCN(CN4C(=O)C(=Nc5ccc(S(=O)(=O)Nc6nc(C)cc(C)n6)cc5)c5cc(F)ccc54)CC3)cc21 | - | cytopathic effect / XTT | IIIB | - | CEM | >117 µM
CCN1C(=O)NC(=O)C(C(C)C)C1CC1CC(C)CC(C#N)C1=O | - | p24 / ELISA | IIIB | - | C8166 | 0.00303 µM
CCCCCCCCCC[N+](C)(C)CCCNCc1c(O)cc2c(c1O)-c1cc(ccc1O)[C@H]1NC(=O)[C@@H]3NC(=O)C4NC(=O)[C@@H](Cc5ccc(c(Cl)c5)Oc5cc3cc(c5O)Oc3ccc(cc3Cl)[C@@H](O)[C@H](NC1=O)C(=O)N[C@@H]2C(=O)O)NC(=O)[C@H](N)c1ccc(O)c(c1)Oc1cc(O)cc4c1 | - | syncytia | IIIB | - | C8166 | 6.6 µM
COc1c(N2CCN(CN3C(=O)C(=Nc4ccc(S(=O)(=O)Nc5nc(C)cc(C)n5)cc4)c4cc(F)ccc43)C(C)C2)c(F)cc2c(=O)c(C(=O)O)cn(C3CC3)c12 | - | cytopathic effect / XTT | IIIB | - | CEM | >135 µM
CC(C)C1=C2C3CCC4[C@@]5(C)CC[C@H](OC(=O)CC(C)(C)C(=O)O)C(C)(C)C5CC[C@@]4(C)[C@]3(C)CC[C@@]2(NC(=O)NC2CC2)CC1=O | - | RT activity | IIIB | 30% human serum | MT-2 | <0.199 µM
COc1ccc(N2CCN(CN3C(=O)C(=Nc4ccc(S(=O)(=O)Nc5nc(C)cc(C)n5)cc4)c4cc(F)ccc43)CC2)cc1 | - | cytopathic effect / XTT | IIIB | - | CEM | >35.2 µM
C[C@@H]1CCO[C@H]2Cn3cc(C(=O)NCc4ccc(F)cc4F)c(=O)c(O)c3C(=O)N12 | M184V | luciferase | NL4-3 | - | TZM-bl | 0.0011 µM
Cc1cc(C#N)cc(C(=O)c2cc(Cl)ccc2OCC(=O)Nc2cnc(S(N)(=O)=O)cc2C)c1 | RT-P236L | β-galactosidase | HXB2 | - | HeLa + HELA CD4+ | <0.01 µM
O=c1cc(-c2cccc3c2Sc2ccccc2S3)oc(N2CCOCC2)c1 | - | p24 | HXB2 | - | C8166 | 2.3 µM

Repeating the final 8 entries:

SMILES | mutations | method | strain or isolate | setting | cells | result
CCN1C(=O)NC(=O)C(C(C)C)C1CC1CC(C)CC(C#N)C1=O | - | p24 / ELISA | IIIB | - | C8166 | 0.00303 µM
CCCCCCCCCC[N+](C)(C)CCCNCc1c(O)cc2c(c1O)-c1cc(ccc1O)[C@H]1NC(=O)[C@@H]3NC(=O)C4NC(=O)[C@@H](Cc5ccc(c(Cl)c5)Oc5cc3cc(c5O)Oc3ccc(cc3Cl)[C@@H](O)[C@H](NC1=O)C(=O)N[C@@H]2C(=O)O)NC(=O)[C@H](N)c1ccc(O)c(c1)Oc1cc(O)cc4c1 | - | syncytia | IIIB | - | C8166 | 6.6 µM
COc1c(N2CCN(CN3C(=O)C(=Nc4ccc(S(=O)(=O)Nc5nc(C)cc(C)n5)cc4)c4cc(F)ccc43)C(C)C2)c(F)cc2c(=O)c(C(=O)O)cn(C3CC3)c12 | - | cytopathic effect / XTT | IIIB | - | CEM | >135 µM
CC(C)C1=C2C3CCC4[C@@]5(C)CC[C@H](OC(=O)CC(C)(C)C(=O)O)C(C)(C)C5CC[C@@]4(C)[C@]3(C)CC[C@@]2(NC(=O)NC2CC2)CC1=O | - | RT activity | IIIB | 30% human serum | MT-2 | <0.199 µM
COc1ccc(N2CCN(CN3C(=O)C(=Nc4ccc(S(=O)(=O)Nc5nc(C)cc(C)n5)cc4)c4cc(F)ccc43)CC2)cc1 | - | cytopathic effect / XTT | IIIB | - | CEM | >35.2 µM
C[C@@H]1CCO[C@H]2Cn3cc(C(=O)NCc4ccc(F)cc4F)c(=O)c(O)c3C(=O)N12 | M184V | luciferase | NL4-3 | - | TZM-bl | 0.0011 µM
Cc1cc(C#N)cc(C(=O)c2cc(Cl)ccc2OCC(=O)Nc2cnc(S(N)(=O)=O)cc2C)c1 | RT-P236L | β-galactosidase | HXB2 | - | HeLa + HELA CD4+ | <0.01 µM
O=c1cc(-c2cccc3c2Sc2ccccc2S3)oc(N2CCOCC2)c1 | - | p24 | HXB2 | - | C8166 | 2.3 µM